Anti-infective test results gathered from many reports (values: NIAID ChemDB through PubChem).

All rows: host cell toxicity; cell line: PBMC; endpoint: CC50

Lines come from different laboratories, so protocols vary.

{"smiles": "COc1ccc2nc(Cl)c(/C=C/C(=O)c3ccc4c(c3)OCCO4)cc2c1", "method": "MTS", "value": "14.2 µM"}
{"smiles": "Cc1cc(C)cc(N2C(=O)CCC2(C#N)c2c(Cl)cccc2Cl)c1", "method": "absorbance", "value": "59 µM"}
{"smiles": "CN(C)CCNc1nc(-c2cccs2)cc(-c2cc3ccccc3s2)n1", "value": ">100 µM"}
{"smiles": "Cc1cn([C@H]2C=C[C@@H](COC(=O)NCCc3ccc(Cl)cc3)O2)c(=O)[nH]c1=O", "method": "tetrazolium", "value": ">100 µM"}
{"smiles": "CN(C)CCSc1nc(-c2cccs2)cc(-c2cccs2)n1", "value": ">100 µM"}
{"smiles": "Cc1cn([C@H]2C=C[C@@H](COC(=O)NCCc3ccccc3F)O2)c(=O)[nH]c1=O", "method": "tetrazolium", "value": ">100 µM"}
{"smiles": "CC(=O)c1ccc(S(=O)(=O)NCCc2ccc3c(n2)NCCC3)cc1Cl", "value": "50 µM"}
{"smiles": "Nc1nccc2c1ncn2[C@@H]1C[C@H](CO)[C@@H](O)[C@H]1O", "value": "10 µM"}
{"smiles": "COc1ccc(F)cc1-c1cccc(NC(=O)NCCc2ccc3c(n2)NCCC3)n1", "value": "6.1 µM"}
{"smiles": "COc1ccccc1CCNC(=O)OC[C@@H]1C=C[C@H](n2cc(C)c(=O)[nH]c2=O)O1", "method": "tetrazolium", "value": ">100 µM"}
{"smiles": "O=C(NCCc1ccc2c(n1)NCCC2)Nc1ccc(Cl)c(C(F)(F)F)c1", "value": "3.7 µM"}
{"smiles": "N#CC(NCc1ccc(C=O)cc1)c1ccccc1", "method": "absorbance", "value": "23.5 µM"}
{"smiles": "Cc1ccc2nc(Cl)c(/C=C/C(=O)c3cc4ccccc4o3)cc2c1", "method": "MTS", "value": "4.8 µM"}
{"smiles": "NCCNc1nc(-c2cccs2)cc(-c2cccs2)n1", "value": "10 µM"}
{"smiles": "Nc1ncnc2c1ncn2[C@@H]1C=C(CO)[C@@H](O)[C@H]1O", "value": "9.99 µM"}
{"smiles": "CCCCOc1nc(N)c2c(n1)N(Cc1cccc(CN3CCCC3)c1)CC(=O)N2", "method": "luminescence", "value": ">10 µM"}
{"smiles": "Cc1ccc(N2C(=O)CCC2(C#N)c2ccc(OC(C)C)cc2)cc1", "method": "absorbance", "value": ">100 µM"}
{"smiles": "Cc1csc(C(=O)/C=C/c2cc3cc(C)ccc3nc2Cl)c1", "method": "MTS", "value": "42.9 µM"}
{"smiles": "CC(C)c1ccc(NC(=O)NCC2CCc3ccccc3N2)cc1", "value": "50 µM"}
{"smiles": "Cc1ccc2nc(Cl)c(/C=C/C(=O)c3ccc[nH]3)cc2c1", "method": "MTS", "value": "19.9 µM"}
{"smiles": "Cc1ccc(N2C(=O)CCC2(CN)c2ccccc2)cc1", "method": "absorbance", "value": "54.1 µM"}
{"smiles": "OCCNc1nc(-c2cccs2)cc(-c2cccs2)n1", "value": "100 µM"}
{"smiles": "Cc1ccc(NC(C#N)c2ccccc2OCc2ccccc2)cc1", "method": "absorbance", "value": "15.6 µM"}
{"smiles": "COc1ccc2nc(Cl)c(/C=C/C(=O)c3cc(Cl)sc3Cl)cc2c1", "method": "MTS", "value": "2.7 µM"}
{"smiles": "CCCCc1cn(-c2cccc(S(=O)(=O)Nc3cccc4cnccc34)c2)nn1", "conditions": "24 h", "method": "fluorescence", "value": "219 µM"}
{"smiles": "CCOc1ccc(C2(C#N)CC(=O)N2Cc2ccccc2)cc1", "method": "absorbance", "value": ">100 µM"}
{"smiles": "Cc1cn([C@H]2C=C[C@@H](COC(=O)NCCc3cccs3)O2)c(=O)[nH]c1=O", "method": "tetrazolium", "value": ">100 µM"}
{"smiles": "Cc1ccc2nc(Cl)c(/C=C/C(=O)c3cc(Cl)sc3Cl)cc2c1", "method": "MTS", "value": "10.6 µM"}
{"smiles": "CN(C)CCSc1nc(-c2cccs2)cc(-c2cccn2C)n1", "value": "100 µM"}
{"smiles": "Cc1ccc2nc(Cl)c(/C=C/C(=O)c3ccsc3)cc2c1", "method": "MTS", "value": "10.7 µM"}
{"smiles": "Cc1ccc(NC(C#N)c2ccc(OCc3c(Cl)cccc3Cl)cc2)cc1", "method": "absorbance", "value": "14 µM"}

3 of the rows above, restated:

{"smiles": "Cc1ccc(NC(C#N)c2ccc(OCc3c(Cl)cccc3Cl)cc2)cc1", "method": "absorbance", "value": "14 µM"}
{"smiles": "COc1ccc2nc(Cl)c(/C=C/C(=O)c3ccc4c(c3)OCCO4)cc2c1", "method": "MTS", "value": "14.2 µM"}
{"smiles": "Cc1ccc(NC(C#N)c2ccccc2OCc2ccccc2)cc1", "method": "absorbance", "value": "15.6 µM"}

CCn is the concentration with n% toxicity to the cells.